# Columns and labels:
# Plasmodium falciparum [1] = test: In vitro antimalarial activity against Plasmodium falciparum; assay type: functional, organism-based
# Plasmodium falciparum [2] = test: Antimalarial activity in vitro; assay type: functional, organism-based
SMILES,EC50 (Plasmodium falciparum [1]) [µM],EC50 (Plasmodium falciparum [2]) [µM]
CCCCC(CCCC)(OOC)OOC,4.8,–
COOC1(OOC)CCC(C(C)(C)C)CC1,25,–
CCCCC1(CCCC)OOCCCOO1,–,0.16
